# According to ChEMBL document CHEMBL3244199, “6beta-[N,N-Bis(2-chloroethyl)amino]-17-(cyclopropylmethyl)-4,5alpha-epoxy-3,14-dihydroxymorphinan(chlornaltrexamine) a potent opioid receptor alkylating agent with ultralong narcotic antagonist actitivty” (J Med Chem, 1978):
# By UniProt entry, the sequences of proteins in these tests, tags left out. Where a name states a change or a piece, a line headed by the entry shows the natural chain unless it says otherwise.
# UniProt P41145: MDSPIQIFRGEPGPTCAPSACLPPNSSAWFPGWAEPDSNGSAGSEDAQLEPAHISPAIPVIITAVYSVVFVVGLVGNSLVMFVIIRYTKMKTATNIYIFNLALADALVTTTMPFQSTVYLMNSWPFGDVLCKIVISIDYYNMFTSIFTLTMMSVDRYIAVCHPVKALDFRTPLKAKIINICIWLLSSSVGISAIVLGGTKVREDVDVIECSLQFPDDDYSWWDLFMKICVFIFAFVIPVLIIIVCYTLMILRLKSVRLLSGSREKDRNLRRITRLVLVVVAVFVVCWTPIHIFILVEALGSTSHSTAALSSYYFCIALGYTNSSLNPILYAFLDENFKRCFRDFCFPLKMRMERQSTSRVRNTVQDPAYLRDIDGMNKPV
# UniProt P41143, whole entry, looked up: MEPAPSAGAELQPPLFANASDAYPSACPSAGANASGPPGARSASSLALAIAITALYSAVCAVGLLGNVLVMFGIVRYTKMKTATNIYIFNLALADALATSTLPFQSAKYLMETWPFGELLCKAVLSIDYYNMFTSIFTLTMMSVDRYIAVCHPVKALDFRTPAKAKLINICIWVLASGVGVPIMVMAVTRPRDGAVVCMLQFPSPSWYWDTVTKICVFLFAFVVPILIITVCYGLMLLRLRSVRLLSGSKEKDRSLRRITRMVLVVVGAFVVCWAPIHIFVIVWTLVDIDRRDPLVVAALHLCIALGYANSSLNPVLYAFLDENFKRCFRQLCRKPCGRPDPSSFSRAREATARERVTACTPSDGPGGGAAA
# UniProt P35372, whole entry, looked up: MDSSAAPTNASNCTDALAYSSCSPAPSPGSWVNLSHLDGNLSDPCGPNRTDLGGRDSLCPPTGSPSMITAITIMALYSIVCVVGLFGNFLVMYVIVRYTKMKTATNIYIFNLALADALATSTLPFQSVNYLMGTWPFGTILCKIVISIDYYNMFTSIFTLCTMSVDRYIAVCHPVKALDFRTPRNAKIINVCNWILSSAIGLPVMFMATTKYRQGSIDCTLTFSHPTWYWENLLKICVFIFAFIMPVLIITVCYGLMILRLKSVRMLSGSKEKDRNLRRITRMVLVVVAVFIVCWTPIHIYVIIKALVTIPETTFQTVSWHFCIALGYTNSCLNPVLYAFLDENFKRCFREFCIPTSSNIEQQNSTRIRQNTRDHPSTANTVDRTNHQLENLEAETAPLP
# The source made the active and inactive calls. No cut-off for these calls is given here.
# Legend:
# Mus musculus [1] = test: Inhibition of morphine-induced analgesia in mouse at 1.2 nmol, icv measured after 6 days by tail-flick assay
# Mus musculus [2] = test: Inhibition of morphine-induced analgesia in mouse at 1.2 nmol, icv pretreated with 150 mg/kg naloxone as three divided doses for 30 mins by tail-flick assay
# Mus musculus [3] = test: Inhibition of morphine-induced analgesia in icv dosed mouse assessed as increase in morphine ED50 measured after 24 hrs by tail-flick assay relative to morphine-alone treated control
# Mus musculus [4] = test: Analgesic activity in mouse at 0.6 to 4.8 nmol, icv measured after 2 hrs by tail-flick assay
# Mus musculus [5] = test: Analgesic activity in mouse at 4.8 nmol, icv measured after 10 to 20 mins by tail-flick assay
# Mus musculus [6] = test: Inhibition of morphine-induced analgesia in mouse assessed as increase in morphine ED50 at 2.4 nmol, icv by tail-flick assay relative to morphine-alone treated control
# Mus musculus [7] = test: Analgesic activity in mouse at 4.8 nmol, icv measured after 60 mins by tail-flick assay
# Mus musculus [8] = test: Inhibition of morphine-induced analgesia in icv dosed mouse by tail-flick assay
# Mus musculus [9] = test: Inhibition of morphine-induced analgesia in mouse assessed as increase in morphine ED50 at 0.6 nmol, icv by tail-flick assay relative to morphine-alone treated control
# Mus musculus [10] = test: Inhibition of morphine-induced analgesia in mouse assessed as increase in morphine ED50 at 1.2 nmol, icv by tail-flick assay relative to morphine-alone treated control
# Mus musculus [11] = test: Inhibition of morphine-induced analgesia in mouse at 1.2 nmol, icv measured after 3 days by tail-flick assay
# [12] = molecular target: Opioid receptors; mu/kappa/delta (Homo sapiens) (UniProt P41145+P41143+P35372); details: Brain, 10 nM
smiles,measurement,setting,value
Cl.Oc1ccc2c3c1O[C@H]1[C@H](N(CCCl)CCCl)CC[C@@]4(O)[C@@H](C2)N(CC2CC2)CC[C@]314,inhibition,Mus musculus [1],inactive
same,inhibition,Mus musculus [2],inactive
same,fold change (FC),Mus musculus [3],3
same,Activity,Mus musculus [4],inactive
same,Activity,Mus musculus [5],18%
same,fold change (FC),Mus musculus [6],179
same,Activity,Mus musculus [7],inactive
same,inhibition,Mus musculus [8],Dose-dependent effect
same,fold change (FC),Mus musculus [9],7
same,fold change (FC),Mus musculus [10],66
same,inhibition,Mus musculus [11],Active
same,inhibition,[12],Active
